In this experiment the test system is human nasal polyp tissue. The experiment in a line: cytokine release, spontaneous and after Staphylococcus enterotoxin B (SEB) stimulation, ex-vivo tissue fragments. The following applies: about 24 hours.

As to `CCC(=O)O[C@]1(C(=O)SCF)[C@H](C)C[C@H]2[C@@H]3C[C@H](F)C4=CC(=O)C=C[C@]4(C)[C@@]3(F)[C@@H](O)C[C@@]21C`, the “impact on IL-10 release” value (FIG. 11) was “substantially minimal impact”. In addition, the “impact on TGF-β release” value (FIG. 13) is “substantially little impact”. For the setting “about 0.5 μg/ml SEB, supernatant, FIG. 3”, the “SEB-stimulated release of IL-2” value is listed as “only partially inhibited”. The “SEB-stimulated release of IFN-γ” value (about 0.5 μg/ml SEB, supernatant, FIG. 4) was “only partially inhibited”. Further, the “SEB-stimulated release of IL-4” value (about 0.5 μg/ml SEB, supernatant, FIG. 5) was “substantially inhibited”. Further, for the setting “about 0.5 μg/ml SEB, supernatant, FIG. 6”, the “SEB-induced release of IL-5” value is reported as “substantially inhibited”. For the setting “about 0.5 μg/ml SEB, supernatant, FIG. 7”, the “SEB-induced release of IL-13” value was “substantially inhibited”. Besides, for the setting “about 0.5 μg/ml SEB, supernatant, FIG. 8”, the “SEB-stimulated release of IL-17” value is listed as “only partially inhibited”. Also, the “SEB-induced release of IL-1β” value (about 0.5 μg/ml SEB, supernatant, FIG. 9) is “hardly inhibited”. In addition, the “SEB-stimulated release of TNF-α” value (about 0.5 μg/ml SEB, supernatant, FIG. 10) is “not inhibited”. The “SEB-stimulated release of IL-12 p70” value (about 0.5 μg/ml SEB, supernatant, FIG. 12) was “substantially inhibited”.

These data come from US20120040030A1, “HERBAL-BASED NASAL SOLUTION AND METHOD OF USE THEREOF” (published 2012).
